Test results taken from US11980631B2, “β-lactamase inhibitors” (priority 2017, dated 2024).

Protein sequences, listed by entry. Tags and fused reporters are not part of them. Residues count along the entry.
UniProt P9WKD3, 35-307 limits assumed: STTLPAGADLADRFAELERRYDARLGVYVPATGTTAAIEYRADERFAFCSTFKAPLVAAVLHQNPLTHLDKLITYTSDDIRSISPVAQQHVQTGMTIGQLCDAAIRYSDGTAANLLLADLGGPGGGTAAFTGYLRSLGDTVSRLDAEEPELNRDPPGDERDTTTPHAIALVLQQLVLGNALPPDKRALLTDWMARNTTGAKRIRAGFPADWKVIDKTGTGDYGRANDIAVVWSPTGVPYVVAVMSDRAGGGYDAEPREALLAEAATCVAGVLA
UniProt P52700, 34-290 limits assumed: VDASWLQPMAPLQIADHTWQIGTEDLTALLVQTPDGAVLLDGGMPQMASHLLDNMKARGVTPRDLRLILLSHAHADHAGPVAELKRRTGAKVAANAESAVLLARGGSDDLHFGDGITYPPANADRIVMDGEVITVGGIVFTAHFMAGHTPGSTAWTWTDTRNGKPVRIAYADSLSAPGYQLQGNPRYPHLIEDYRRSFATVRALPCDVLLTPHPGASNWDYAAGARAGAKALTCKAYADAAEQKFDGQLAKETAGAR
UniProt P96465, 36-303 limits assumed: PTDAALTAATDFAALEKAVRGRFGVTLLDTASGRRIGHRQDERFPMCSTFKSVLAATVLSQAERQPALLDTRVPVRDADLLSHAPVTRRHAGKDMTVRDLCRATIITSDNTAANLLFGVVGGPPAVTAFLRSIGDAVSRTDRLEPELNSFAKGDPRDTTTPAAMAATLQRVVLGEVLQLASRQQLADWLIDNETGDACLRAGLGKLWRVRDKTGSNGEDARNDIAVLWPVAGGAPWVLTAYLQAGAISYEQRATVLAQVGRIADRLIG

How the values were obtained:
BlaC = BlaC (Mycobacterium tuberculosis (strain ATCC 25618 / H37Rv), UniProt P9WKD3); test: BlaC inhibition assay (FC5 hydrolysis, fluorescence); assay type: biochemical
S. maltophilia = settings: inhibitor at 2 mg/L
[1] = test system: L1 β-lactamase production in S. maltophilia K279a; test: L1 β-lactamase induction by β-lactamase inhibitors (meropenem hydrolysis in cell extracts); settings: 50 μg.mL^−1 inducer
L1 MBL = L1 MBL (Stenotrophomonas maltophilia (Pseudomonas maltophilia) (Xanthomonas maltophilia), UniProt P52700); test: Inhibition of purified L1, fluorogenic substrate FC5 as reporter; settings: inhibitor concentrations up to 2.5 mM
L2 = L2 (Stenotrophomonas maltophilia (Pseudomonas maltophilia) (Xanthomonas maltophilia), UniProt P96465); test: Inhibition of purified L2, fluorogenic substrate FC5 as reporter

O=C(O)c1cccc2c1O[B-](O)(O)[C@@H](NC(=O)C1CCCCC1)C2
pIC50 (BlaC; pre-incubation time 0 min): 6.83 ± 0.01 | pIC50 (BlaC; pre-incubation time 10 min): 6.8 ± 0.1 | pIC50 (BlaC; pre-incubation time 60 min): 6.94 ± 0.01

NCc1ccc(C(=O)N[C@H]2Cc3cccc(C(=O)O)c3O[B-]2(O)O)cc1
MIC of aztreonam in the presence of the β-lactamase inhibitor (S. maltophilia; CI-20): 2 µg/mL | MIC of ceftazidime in the presence of the β-lactamase inhibitor (S. maltophilia; CI-20): 2 µg/mL | MIC of meropenem in the presence of the β-lactamase inhibitor (S. maltophilia; CI-20): 8 µg/mL | MIC of aztreonam in the presence of the β-lactamase inhibitor (S. maltophilia; CI-29): 1 µg/mL | MIC of ceftazidime in the presence of the β-lactamase inhibitor (S. maltophilia; CI-29): 0.5 µg/mL | MIC of meropenem in the presence of the β-lactamase inhibitor (S. maltophilia; CI-29): 8 µg/mL | MIC of ceftazidime in the presence of the β-lactamase inhibitor (S. maltophilia; CI-31): 128 µg/mL | MIC of meropenem in the presence of the β-lactamase inhibitor (S. maltophilia; CI-31): 256 µg/mL | MIC of aztreonam in the presence of the β-lactamase inhibitor (S. maltophilia; CI-31, listed as 2): ≤ 4 µg/mL | MIC of aztreonam in the presence of the β-lactamase inhibitor (S. maltophilia; CI-31, listed as BOR): 4 µg/mL | MIC of aztreonam in the presence of the β-lactamase inhibitor (S. maltophilia; K279a): 1 µg/mL | MIC of ceftazidime in the presence of the β-lactamase inhibitor (S. maltophilia; K279a): 0.5 µg/mL | MIC of meropenem in the presence of the β-lactamase inhibitor (S. maltophilia; K279a): 4 µg/mL | MIC of aztreonam in the presence of the β-lactamase inhibitor (S. maltophilia; K AMI 32): 1 µg/mL | MIC of ceftazidime in the presence of the β-lactamase inhibitor (S. maltophilia; K AMI 32): 1 µg/mL | MIC of meropenem in the presence of the β-lactamase inhibitor (S. maltophilia; K AMI 32): 4 µg/mL | MIC of aztreonam in the presence of the β-lactamase inhibitor (S. maltophilia; K CAZ 10): 1 µg/mL | MIC of ceftazidime in the presence of the β-lactamase inhibitor (S. maltophilia; K CAZ 10): 4 µg/mL | MIC of meropenem in the presence of the β-lactamase inhibitor (S. maltophilia; K CAZ 10): 16 µg/mL | MIC of aztreonam in the presence of the β-lactamase inhibitor (S. maltophilia; K MOX 8): 1 µg/mL | MIC of ceftazidime in the presence of the β-lactamase inhibitor (S. maltophilia; K MOX 8): 0.5 µg/mL | MIC of meropenem in the presence of the β-lactamase inhibitor (S. maltophilia; K MOX 8): 8 µg/mL | ability to potentiate β-lactams / reverse resistance (in words) (S. maltophilia; β-lactam and strain named in the value): reduce ceftazidime MICs against K279a | pIC50 (BlaC; pre-incubation time 0 min): 7.63 ± 0.08 | pIC50 (BlaC; pre-incubation time 10 min): 8 | pIC50 (BlaC; pre-incubation time 60 min): >8 | induction of L1 production (in words) [1]: neither avibactam nor 2 induces L1 to any measurable extent | inhibition of L1 (in words) (L1 MBL): does not inhibit the class B3 MBL, L1 | IC50 (L2): 5.25 nM | pIC50 (L2): 8.27

Read-outs that look alike come from different tables or passages of the source.
